Results reported in article PMC6627197, “Development of a High Throughput Screen for the Identification of Inhibitors of Peptidoglycan O-Acetyltransferases, New Potential Antibacterial Targets” (Antibiotics, 2019).

How the values were obtained:
[1] = tested on: N. gonorrhoeae FA1090; assay: Microtiter plate growth / MIC assay, N. gonorrhoeae; details: concentrations up to solubility limit
[2] = tested on: S. aureus ATCC 6538; assay: Microtiter plate growth / MIC assay, S. aureus; details: concentrations up to solubility limit

O=c1ccc2cc(O[C@@H]3O[C@H](CO)[C@@H](O)[C@H](O)[C@H]3O)c(O)cc2o1 [Esculin]
Effect on growth of N. gonorrhoeae FA1090 [1]: neither esculin nor scopoletin had any significant effect
Effect on growth of S. aureus ATCC 6538 [2]: neither esculin nor scopoletin had any significant effect

COc1cc2ccc(=O)oc2cc1O [Scopoletin]
Effect on growth of N. gonorrhoeae FA1090 [1]: neither esculin nor scopoletin had any significant effect
Effect on growth of S. aureus ATCC 6538 [2]: neither esculin nor scopoletin had any significant effect
